Where a chain is given by its changes, count along the chain named. This is one part of the list. Env chains of viruses from a treatment-interruption trial, translated from the printed DNA. IC50 / IC80 of two broadly neutralizing antibodies; lower = more sensitive virus; >50 µg/ml means not reached and <0.001 µg/ml is below the lowest dose. No active / inactive call.
B1: HIV-1 Env, rebound clone, placebo arm (protein)
chain: MKVKGTRMNWQHLWRWGTLMLGLVIICNASNTNLWVTVYYGVPAWEDADTTLFCASDAKAYSTEKHNVWATHACVPTDPNPQEISLPNVTENFDMWKNNMVEQMHEDIISLWDESLKPCVKLTPLCVTLTCSDINITNSSNTTTTNGNNSMVDPEEIKNCTFNMTTEIIDKKKEEYALFYKLDIVQINNGNGSKDYRLINCNVSTIKQACPKVSFEPIPIHYCAPAGFAILKCKDKNFNGTGPCKNVSTVQCTHGIKPVVSTQLLLNGSLAEEDIVIRTKNITDNGNNIIVHLNESITINCTRPNNNTRKSIHLGQGQAFYATGAIIGDIRQAHCNVSGSQWINMIKRVAGKLKGVFSKNVTFNSSAGGDLEITTHSFNCGGEFFYCNTSNLFNSSILTSNNTNENITLPCKIRQIVRMWQTVGQAMYAPPIAGSIICTSNITGLILTRDGGSNETNGTDTFRPGGGNMKDNWRSELYKYKVVKIKPLGIAPTKARRRVVGREKRAIGVLGAALLGFLGTAGSTMGAASITLTVQVRQLLSGIVQQQSNLLRAIEAQQHLLQLTVWGIKQLQARVLAVERYLRDQQLLGIWGCSGKLICTTNVPWNASWSNKSYEEIWDNMTWIQWDREIDNYTQLIYSLIEESQNQQEKNEQDLLALDKWTSLWSWFDISNWLWYIRIFIIIVGGLIGLRIVFAVLSIVNRVRQGYSPLSLQTLLPHPPEADRPGEIEEGGGEQGRTRSIRLVNGFLALAWDDLRNLCLFLYHHLRDFILTAARTVETLGHRGWEILKYLGNLLCYWGQELKNSVINLLDTTAIAVGNWTDRFIELGQRVVRAVLHIPRRTRQGLERALL
B2: HIV-1 Env, rebound clone, placebo arm (protein)
chain: B1 chain with N191S, G192D
B3: HIV-1 Env, rebound clone, placebo arm (protein)
chain: MKVKGTRMNWQHLWRWGTLMLGLVIICNASNTNLWVTVYYGVPAWEDADTTLFCASDAKAYSTEKHNVWATHACVPTDPNPQEISLPNVTENFDMWKNNMVEQMHEDIISLWDESLKPCVKLTPLCVTLTCSDINITNSSNTTTTNGNNSMVDPEEIKNCTFNMTTEIIDKKKEEYALFYKLDIVQINNGNGNDSKDYRLINCNVSTIKQACPKVSFEPIPIHYCAPAGFAILKCKDKNFNGTGPCKNVSTVQCTHGIKPVVSTQLLLNGSLAEEDIVIRTKNITDNGNNIIVHLNESITINCTRPNNNTRKSIHLGQGQAFYATGAIIGDIRQAHCNVSGSQWINMIKRVAGKLKGVFSKNVTFNSSAGGDLEITTHSFNCGGEFFYCNTSNLFNSSILTSNNTNENITLPCKIRQIVRMWQTVGQAMYAPPIAGSIICTSNITGLILTRDGGSNETNGTDTFRPGGGNMKDNWRSELYKYKVVKIKPLGIAPTKARRRVVGREKRAIGVLGAALLGFLGTAGSTMGAASITLTVQVRQLLSGIVQQQSNLLRAIEAQQHLLQLTVWGIKQLQARVLAVERYLRDQQLLGIWGCSGKLICTTNVPWNASWSNKSYEEIWDNMTWIQWDREIDNYTQLIYSLIEESQNQQEKNEQDLLALDKWTSLWSWFDISNWLWYIRIFIIIVGGLIGLRIVFAVLSIVNRVRQGYSPLSLQTLLPHPPEADRPGEIEEGGGEQGRTRSIRLVNGFLALAWDDLRNLCLFLYHHLRDFILTAARTVETLGHRGWEILKYLGNLLCYWGQELKNSVINLLDTTAIAVGNWTDRFIELGQRVVRAVLHIPRRTRQGLERALL

Legend:
antibody 10-1074 [1] = assay: neutralization IC50; higher = virus less sensitive to the antibody
Experimental: (§1)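 Pseudovirus bearing the Env chain mixed with antibody, from 50 µg/ml in fivefold dilutions, on TZM-bl reporter cells, in duplicate.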

antibody 3BNC117 [2] = assay: as above
Experimental: as §1

antibody 10-1074 [3] = assay: neutralization IC80; higher = virus less sensitive to the antibody
Experimental: as §1

antibody 3BNC117 [4] = assay: as above
Experimental: as §1

Binder	neutralization IC50 (antibody 10-1074 [1]) [ng/mL]	neutralization IC50 (antibody 3BNC117 [2]) [µg/mL]	neutralization IC80 (antibody 10-1074 [3]) [µg/mL]	neutralization IC80 (antibody 3BNC117 [4]) [µg/mL]
B1	8	0.154	0.024	0.419
B2	5	0.199	0.019	1.24
B3	9	0.124	0.019	0.594

Reference: the supplement of paper PMC12637763
